Compound potency records, mixed from different reports. Data source: NIAID ChemDB in PubChem.

All rows: tests on isolated targets; agent: Hepatitis C virus; target: NS3 protease; endpoint: IC50

Rows are shuffled and stem from different studies. ICn: concentration for n% inhibition.

smiles	value
CCCC(=O)c1cc2c(c(O)c1C)C(=O)C(=O)c1c(O)cccc1-2	7.7 µM
N[C@@H](CC(=O)O)C(=O)N[C@@H](CCC(=O)O)C(=O)N[C@H](C(=O)N[C@@H](CCC(=O)O)C(=O)N[C@@H](CC1CCCCC1)C(=O)N[C@H](CS)C(=O)O)C(c1ccccc1)c1ccccc1	3.4 µM
O=C(Nc1ccc(Oc2ccccc2)cc1)c1c(O)cc(O)c([N+](=O)[O-])c1O	22.2 µM
N[C@@H](CC(=O)O)C(=O)N[C@@H](CCC(=O)O)C(=O)N[C@H](C(=O)N[C@@H](CCC(=O)O)C(=O)N[C@@H](CC1CCCCC1)C(=O)N[C@@H](CS)C(=O)O)C(c1ccccc1)c1ccccc1	0.05 µM
CC(=O)N[C@@H](CC(=O)O)C(=O)N[C@H](CCC(=O)O)C(=O)N[C@H](C(=O)N[C@H](C(=O)N1C[C@H](OCc2ccc3ccccc3c2)C[C@@H]1C(=O)NC1(C(=O)O)CC1)C(C)C)C1CCCCC1	0.014 µM
C=CN(CC(=O)O)C(=O)[C@H](CCC(=O)O)NC(=O)[C@H](CCC(=O)O)NC(=O)[C@H](CCSC)NC(=O)[C@H](CCC(=O)O)NC(=O)[C@@H](N)CC(=O)O	38 µM
CC(=O)N[C@H](C(=O)N[C@H](C(=O)N1C[C@H](OCc2cccc3ccccc23)C[C@H]1C(=O)NC1(C(=O)O)CC1)C(C)C)C1CCCCC1	7.4 µM
CC[C@H](NC(=O)[C@@H](NC(=O)[C@@H](NC(=O)[C@H](CC(=O)O)NC(=O)[C@@H](N)CCC(=O)O)C(C)C)C(C)C)C(=O)N[C@@H](CS)C(=O)O	2.8 µM
CCCCCCCCCCCCCCCCC/C(=C1\SC(=S)N(CC(=O)O)C1=O)c1ccccc1	8.35 µM
CC(C)C[C@H](NC(=O)C1(CC2CCC2)Cc2ccccc2N1)C(=O)N[C@@H](CC(F)F)C(=O)C(=O)O	>100 µM
O=C1C=C2C(=CCOC2O)O1	17.4 µM
CCCCCCCCCCCCCCCCC/C(=C1\SC(=S)N(CC(=O)O)C1=O)c1ccccc1	6.4 µg/mL
CC[C@H](C)[C@H](NC(=O)[C@@H](N)C(c1ccccc1)c1ccccc1)C(=O)N[C@@H](CC1CCCCC1)C(=O)N[C@@H](CS)C(=O)O	100 µM
O=C(NCCOc1ccc(Oc2ccccc2)cc1)c1c(O)cc(O)c([N+](=O)[O-])c1O	32.8 µg/mL
CC(C)C[C@H](NC(=O)C1Cc2ccc(OCC(=O)O)cc2N1)C(=O)N[C@@H](CC(F)F)C(=O)C(=O)O	>100 µM

2 of the rows above, restated:

smiles | value
CC(C)C[C@H](NC(=O)C1(CC2CCC2)Cc2ccccc2N1)C(=O)N[C@@H](CC(F)F)C(=O)C(=O)O | >100 µM
CCCCCCCCCCCCCCCCC/C(=C1\SC(=S)N(CC(=O)O)C1=O)c1ccccc1 | 8.35 µM